Results of unrelated studies side by side (data: NIAID ChemDB).

All rows: cytotoxicity tests; cells: MCF-7; method: MTT; read-out: CC50

CCn: concentration that lowers growth or viability of the cells by n%. Lines come from different laboratories, so protocols vary.

SMILES	result
C[C@@H]1C[C@@H](O)c2c(O[C@H]3O[C@H](CO)[C@@H](O)[C@H]3O)cccc2O1	>40 µg/mL
O=C1/C(=C/c2ccc(-c3cc(C(F)(F)F)ccc3Cl)o2)SC(=S)N1Cc1ccc(Cl)cc1	1.13 µM
CCOC(=O)c1[nH]c2c(c1N)C1=C(CCC/C1=C\c1ccncc1)C(c1ccncc1)S2	>50 µM
O=C(/C=C/c1cc(-c2ccccc2)cnc1Cl)c1ccccc1	82 µM
O=C(O)c1cn(CCO)c2ccc(Cc3ccccc3)cc2c1=O	>20 µM
O=C(c1c[nH]c2ccccc12)[C@H](O)CO	>40 µg/mL
Cc1ccc(C(C)C)cc1.O=C([O-])c1cn(CCO)c2ccc(Cc3ccccc3)cc2c1=O.[Cl][Ru+]	>20 µM
O=c1sc2nc3c(c(=S)n2/c1=C/c1ccccc1)C1=C(CCC/C1=C\c1ccncc1)C(c1ccncc1)S3	38.7 µM
CC(=O)/C=C/c1cc(-c2ccccc2)cnc1Cl	138 µM
CC(C)=C[C@H](O)C[C@@H](C)[C@H]1CC[C@@]2(C)[C@@H]3[C@@H](O)C=C4[C@@H](CC[C@H](O)C4(C)C)[C@]3(C)CC[C@]12C	27.3 µM
CCOC(=O)/C=C/c1cc(-c2ccccc2)cnc1Cl	11 µM
O=C1NC(=NCCc2ccc(Cl)c(Cl)c2)S/C1=C\c1ccc(-c2ccc(C(=O)O)c(O)c2)o1	>100 µM
CCO[C@H]1c2cc(O)c(OC)c(OC)c2-c2c(cc(O)c(OC)c2OC)C[C@H](C)[C@@H]1C	>10 µg/mL
O=C1Cn2c(nc3c(c2=S)C2=C(CCC/C2=C\c2ccncc2)C(c2ccncc2)S3)S1	44.8 µM
COc1c(OC(C)=O)cc2c(c1O)-c1c(cc(O)c(OC)c1OC)C[C@@H](C)[C@@H](C)C2	8.7 µg/mL
CCO/C(C)=N\C1=C(C#N)C2=C(CCC/C2=C\c2ccncc2)C(c2ccncc2)S1	47.2 µM
COC(=O)c1ccc(/C=C/C(=O)c2ccccc2)c(Cl)n1	52 µM
N#CC1=C(N)SC(c2ccncc2)C2=C1/C(=C/c1ccncc1)CCC2	>50 µM
CC1=C([C@H](C)CC/C=C(/C)C(=O)O)CC[C@@]2(C)[C@@H]3CC[C@H]4C(C)(C)C(=O)CC[C@]4(C)[C@]34O[C@@H]4[C@@]12O	>40 µg/mL
S=c1[nH]c2c(c(=S)[nH]1)C1=C(CCC/C1=C\c1ccncc1)C(c1ccncc1)S2	15.2 µM
C/C(=N\NC(=O)c1ccccc1)c1cccc(/C(C)=N/NC(=O)c2ccccc2)n1	41.15 µM

3 of the rows above, restated:

SMILES,result
O=C1NC(=NCCc2ccc(Cl)c(Cl)c2)S/C1=C\c1ccc(-c2ccc(C(=O)O)c(O)c2)o1,>100 µM
O=c1sc2nc3c(c(=S)n2/c1=C/c1ccccc1)C1=C(CCC/C1=C\c1ccncc1)C(c1ccncc1)S3,38.7 µM
O=C(O)c1cn(CCO)c2ccc(Cc3ccccc3)cc2c1=O,>20 µM